Anti-infective test results gathered from many reports (values: NIAID ChemDB through PubChem).

Shared fields: tests in culture; organism: Candida albicans; endpoint: MIC90

a–b is a range or a potency band. Lines come from different laboratories, so protocols vary. A number after MIC or MFC names an inhibition level or a share of isolates.

{"SMILES": "C[C@@H](c1ncncc1F)[C@](O)(Cn1cncn1)c1ccc(F)cc1F", "strain": "ATCC 90028", "value": "0.29 µg/mL"}
{"SMILES": "c1ccc(C(c2ccc3ccccc3c2)n2ccnc2)cc1", "strain": "23 strains", "value": "8 µg/mL"}
{"SMILES": "Fc1ccc(OC(CCn2ccnc2)c2ccccc2)c(F)c1", "strain": "20 strains", "value": "64 µg/mL"}
{"SMILES": "O=[N+]([O-])/C(Br)=C\\c1ccc(Br)o1", "strain": "31 strains", "value": "2.9 µg/mL"}
{"SMILES": "Cc1ccc(C2NCCn3c2c(C)c2ccccc23)cc1", "value": "250 µg/mL"}
{"SMILES": "c1ccc(-c2ccc(C(c3ccccc3)n3ccnc3)cc2)cc1", "strain": "16 strains", "value": "16 µg/mL"}
{"SMILES": "Clc1ccc(COC(Cn2ccnc2)c2ccc3c(c2)OCO3)c(Cl)c1", "value": ">100 µg/mL"}
{"SMILES": "C[C@H]1[C@H](O)[C@@H](C)/C=C/C=C/C=C/C=C/C=C/C=C/C=C/[C@H](O[C@@H]2O[C@H](C)[C@@H](O)[C@H](N)[C@@H]2O)C[C@@H]2O[C@](O)(C[C@@H](O)C[C@@H](O)CC[C@H](O)[C@@H](O)C[C@@H](O)CC(=O)O[C@H]1C)C[C@H](O)[C@H]2C(=O)O", "strain": "34 isolates", "value": "0.5 µg/mL"}
{"SMILES": "Fc1ccc(C(c2ccc3ccccc3c2)n2ccnc2)cc1", "strain": "23 strains", "value": "8 µg/mL"}
{"SMILES": "COc1ccc(C(Cc2ccccc2F)n2ccnc2)cc1", "strain": "34 strains", "value": "256 µg/mL"}
{"SMILES": "CC(=O)N1CCN(c2ccc(OC[C@H]3CO[C@](Cn4ccnc4)(c4ccc(Cl)cc4Cl)O3)cc2)CC1", "strain": "40 isolates azole-susceptible", "value": "0.01 µg/mL"}
{"SMILES": "COc1ccc(C(Cn2cncn2)OCc2ccc(Cl)cc2Cl)cc1OC", "value": "65 µg/mL"}
{"SMILES": "COc1ccc(C(Cc2ccccc2-n2cccc2)n2ccnc2)cc1", "strain": "34 strains", "value": "32 µg/mL"}
{"SMILES": "Nc1[nH]c(=O)ncc1F", "strain": "Fluconazole-resistant", "value": "2 µg/mL"}
{"SMILES": "CC[C@@H]([C@H](C)O)n1ncn(-c2ccc(N3CCN(c4ccc(OC[C@@H]5CO[C@@](Cn6cncn6)(c6ccc(F)cc6F)C5)cc4)CC3)cc2)c1=O", "strain": "1992 isolates", "value": "0.06 µg/mL"}
{"SMILES": "Cc1c2n(c3ccccc13)CCNC2c1cccs1", "value": "250 µg/mL"}
{"SMILES": "C[C@H]1[C@H](O)[C@@H](C)/C=C/C=C/C=C/C=C/C=C/C=C/C=C/[C@H](O[C@@H]2O[C@H](C)[C@@H](O)[C@H](N)[C@@H]2O)C[C@@H]2O[C@](O)(C[C@@H](O)C[C@@H](O)CC[C@H](O)[C@@H](O)C[C@@H](O)CC(=O)O[C@H]1C)C[C@H](O)[C@H]2C(=O)O", "value": "0.78 µg/mL"}
{"SMILES": "CCC(C)CC(C)CCCCCCCCC(=O)N[C@H]1C[C@@H](O)[C@H](NCCN)NC(=O)[C@@H]2[C@@H](O)CCN2C(=O)[C@H]([C@H](O)CCN)NC(=O)[C@H]([C@H](O)[C@@H](O)c2ccc(O)cc2)NC(=O)[C@@H]2C[C@@H](O)CN2C(=O)[C@H]([C@@H](C)O)NC1=O", "strain": "733 strains", "value": "0.5 µg/mL"}
{"SMILES": "COc1ccc(CN2C[C@H](OC[C@@]34C[C@@H]5[C@H](C)CC[C@H]5[C@@]5(C=O)C[C@@H]3CC(C(C)C)[C@@]45C(=O)O)O[C@H](C)C2)cc1", "strain": "16 isolates/fluconazole resistant", "value": "0.002 µg/mL"}
{"SMILES": "Clc1ccc(C(c2ccc3ccccc3c2)n2ccnc2)s1", "strain": "23 strains", "value": "4 µg/mL"}
{"SMILES": "Clc1ccccc1COc1ccc(C(c2ccc(-c3ccccc3)cc2)n2ccnc2)cc1.O=[N+]([O-])O", "strain": "16 strains", "value": "≥256 µg/mL"}
{"SMILES": "CCC(C)CC(C)CCCCCCCCC(=O)N[C@H]1C[C@@H](O)[C@H](NCCN)NC(=O)[C@@H]2[C@@H](O)CCN2C(=O)[C@H]([C@H](O)CCN)NC(=O)[C@H]([C@H](O)[C@@H](O)c2ccc(O)cc2)NC(=O)[C@@H]2C[C@@H](O)CN2C(=O)[C@H]([C@@H](C)O)NC1=O", "strain": "40 strains", "value": "0.5 µg/mL"}
{"SMILES": "C=C(C)CN1C[C@H](OC[C@@]23C[C@@H]4[C@H](C)CC[C@H]4[C@@]4(C=O)C[C@@H]2CC(C(C)C)[C@@]34C(=O)O)O[C@H](C)C1", "strain": "16 isolates", "value": "0.008 µg/mL"}
{"SMILES": "Clc1ccc(COC(Cn2cncn2)c2ccc3ccccc3c2)c(Cl)c1", "value": ">100 µg/mL"}
{"SMILES": "CCS(=O)(=O)C(F)(F)C(O)(Cn1cncn1)c1ccc(F)cc1F", "strain": "55 strains", "value": "0.125 µg/mL"}
{"SMILES": "OC(Cn1cncn1)(Cn1cncn1)c1ccc(F)cc1F", "strain": "10 strains", "value": "0.82 µg/mL"}
{"SMILES": "CCCCCOc1ccc(-c2ccc(-c3ccc(C(=O)N[C@H]4C[C@@H](O)[C@@H](O)NC(=O)[C@@H]5[C@@H](O)[C@@H](C)CN5C(=O)[C@H]([C@H](C)O)NC(=O)[C@H]([C@H](O)[C@@H](O)c5ccc(O)cc5)NC(=O)[C@@H]5C[C@@H](O)CN5C(=O)[C@H]([C@H](C)O)NC4=O)cc3)cc2)cc1", "strain": "15 strains", "value": "0.5 µg/mL"}
{"SMILES": "CCCCCOc1ccc(-c2ccc(-c3ccc(C(=O)N[C@H]4C[C@@H](O)[C@@H](O)NC(=O)[C@@H]5[C@@H](O)[C@@H](C)CN5C(=O)[C@H]([C@H](C)O)NC(=O)[C@H]([C@H](O)[C@@H](O)c5ccc(O)cc5)NC(=O)[C@@H]5C[C@@H](O)CN5C(=O)[C@H]([C@H](C)O)NC4=O)cc3)cc2)cc1", "strain": "10 strains (fluconazole- itraconazole-susceptible)", "value": "0.06 µg/mL"}
{"SMILES": "O[C@](Cn1cncn1)(Cn1cnc(/C=C/c2ccc(OCC(F)(F)C(F)F)cc2)n1)c1ccc(F)cc1F", "strain": "50 strains (fluconazole-resistant)", "value": "2 µg/mL"}
{"SMILES": "CC[C@@H]([C@H](C)O)n1ncn(-c2ccc(N3CCN(c4ccc(OC[C@@H]5CO[C@@](Cn6cncn6)(c6ccc(F)cc6F)C5)cc4)CC3)cc2)c1=O", "strain": "23 strains", "value": "0.125 µg/mL"}
{"SMILES": "CCC(C)n1ncn(-c2ccc(N3CCN(c4ccc(OC[C@H]5CO[C@](Cn6cncn6)(c6ccc(Cl)cc6Cl)O5)cc4)CC3)cc2)c1=O", "strain": "TIMM3164 (azole-resistant)", "value": "0.05 µg/mL"}
{"SMILES": "FC(F)(F)c1ccc(OC(CCn2ccnc2)c2ccccc2)cc1", "strain": "20 strains", "value": "128 µg/mL"}
{"SMILES": "Clc1cc(Cl)c2c(c1)CCc1ccccc1C2n1ccnc1", "strain": "35 isolates", "value": "0.5 µg/mL"}
{"SMILES": "COc1ccc(C(Cc2ccc(N)cc2)n2ccnc2)cc1", "strain": "34 strains", "value": "8 µg/mL"}
{"SMILES": "CCC(C)n1ncn(-c2ccc(N3CCN(c4ccc(OC[C@H]5CO[C@](Cn6cncn6)(c6ccc(Cl)cc6Cl)O5)cc4)CC3)cc2)c1=O", "strain": "Fluconazole-resistant 4 isolates pooled", "value": ">8 µg/mL"}
{"SMILES": "Clc1ccc(C(c2nccc3ccccc23)n2ccnc2)cc1.O=[N+]([O-])O", "strain": "44 strains", "value": "64 µg/mL"}
{"SMILES": "CC[C@@H]([C@H](C)O)n1ncn(-c2ccc(N3CCN(c4ccc(OC[C@@H]5CO[C@@](Cn6cncn6)(c6ccc(F)cc6F)C5)cc4)CC3)cc2)c1=O", "strain": "84 isolates", "value": "0.25 µg/mL"}
{"SMILES": "Cc1c2n(c3ccccc13)CCNC2c1ccc(Br)cc1", "value": "62.5 µg/mL"}
{"SMILES": "Clc1ccc(C(Cn2cncn2)OCc2cccc3ccccc23)c(Cl)c1", "value": ">100 µg/mL"}
{"SMILES": "CCC(C)n1ncn(-c2ccc(N3CCN(c4ccc(OC[C@H]5CO[C@](Cn6cncn6)(c6ccc(Cl)cc6Cl)O5)cc4)CC3)cc2)c1=O", "value": "0.39 µg/mL"}
{"SMILES": "C=CCN1C[C@H](OC[C@@]23C[C@@H]4[C@H](C)CC[C@H]4[C@@]4(C=O)C[C@@H]2CC(C(C)C)[C@@]34C(=O)O)O[C@H](C)C1", "strain": "16 isolates/fluconazole resistant", "value": "0.06 µg/mL"}
{"SMILES": "Fc1ccccc1C(c1nccc2ccccc12)n1ccnc1", "strain": "44 strains", "value": ">256 µg/mL"}
{"SMILES": "Cc1c2n(c3ccccc13)CCNC2c1ccccc1", "value": "125 µg/mL"}
{"SMILES": "CC[C@@H]([C@H](C)O)n1ncn(-c2ccc(N3CCN(c4ccc(OC[C@@H]5CO[C@@](Cn6cncn6)(c6ccc(F)cc6F)C5)cc4)CC3)cc2)c1=O", "value": "0.03–0.06 µg/mL"}
{"SMILES": "Clc1ccc(COc2ccc(C(c3ccc4ccccc4c3)n3ccnc3)cc2)cc1.O=[N+]([O-])O", "strain": "17 strains", "value": "≥256 µg/mL"}
{"SMILES": "CCCCCOc1ccc(-c2ccc(-c3ccc(C(=O)N[C@H]4C[C@@H](O)[C@@H](O)NC(=O)[C@@H]5[C@@H](O)[C@@H](C)CN5C(=O)[C@H]([C@H](C)O)NC(=O)[C@H]([C@H](O)[C@@H](O)c5ccc(O)cc5)NC(=O)[C@@H]5C[C@@H](O)CN5C(=O)[C@H]([C@H](C)O)NC4=O)cc3)cc2)cc1", "strain": "63 isolates", "value": "1 µg/mL"}
{"SMILES": "COc1ccc(C(c2cccc3ccccc23)n2ccnc2)cc1", "strain": "23 strains", "value": "32 µg/mL"}
{"SMILES": "Clc1ccc(COc2ccc(C(c3nccc4ccccc34)n3ccnc3)cc2)cc1.O=[N+]([O-])O", "strain": "16 strains", "value": "≥256 µg/mL"}
{"SMILES": "COc1ccc(C(Cc2ccccc2Cl)n2ccnc2)cc1", "strain": "34 strains", "value": "256 µg/mL"}
{"SMILES": "Nc1[nH]c(=O)ncc1F", "strain": "58 strains", "value": "0.5 µg/mL"}
{"SMILES": "Clc1ccc(COC(Cn2ccnc2)c2ccc(Cl)cc2Cl)c(Cl)c1", "strain": "16 strains", "value": "1 µg/mL"}
{"SMILES": "COc1ccc(C(Cc2cccc(Cl)c2)n2ccnc2)cc1", "strain": "34 strains", "value": "128 µg/mL"}
{"SMILES": "Clc1ccc(C(Cn2cncn2)OCc2ccc3ccccc3c2)c(Cl)c1", "value": ">100 µg/mL"}
{"SMILES": "CCC(C)CC(C)CCCCCCCCC(=O)N[C@H]1C[C@@H](O)[C@H](NCCN)NC(=O)[C@@H]2[C@@H](O)CCN2C(=O)[C@H]([C@H](O)CCN)NC(=O)[C@H]([C@H](O)[C@@H](O)c2ccc(O)cc2)NC(=O)[C@@H]2C[C@@H](O)CN2C(=O)[C@H]([C@@H](C)O)NC1=O", "strain": "40 isolates", "value": "0.5 µg/mL"}
{"SMILES": "Clc1ccc(C(Cn2ccnc2)OCc2cccc3ccccc23)c(Cl)c1", "value": "23.8 µg/mL"}
{"SMILES": "CC(=O)N1CCN(c2ccc(OC[C@H]3CO[C@](Cn4ccnc4)(c4ccc(Cl)cc4Cl)O3)cc2)CC1", "strain": "126 strains", "value": "8 µg/mL"}
{"SMILES": "Clc1ccc(C(Cn2cncn2)OCc2cc3ccccc3o2)c(Cl)c1", "value": ">100 µg/mL"}
{"SMILES": "C=C1CO[C@H]2[C@@H](C)OC(OC[C@@]34C[C@H]5[C@H](C)CC[C@@H]5[C@@]5(C=O)C[C@@H]3C=C(C(C)C)[C@@]45C(=O)O)C[C@@H]12", "strain": "40 strains (fluconazole-resistant)", "value": "0.12 µg/mL"}
{"SMILES": "OC[C@@H]1CO[C@](Cn2ccnc2)(c2ccc(-c3ccccc3)cc2)O1", "strain": "44 strains", "value": "128 µg/mL"}
{"SMILES": "COc1ccc(C(Cc2cccc(-n3cccc3)c2)n2ccnc2)cc1", "strain": "34 strains", "value": "256 µg/mL"}

Repeating the first 8 entries:

{"SMILES": "C[C@@H](c1ncncc1F)[C@](O)(Cn1cncn1)c1ccc(F)cc1F", "strain": "ATCC 90028", "value": "0.29 µg/mL"}
{"SMILES": "c1ccc(C(c2ccc3ccccc3c2)n2ccnc2)cc1", "strain": "23 strains", "value": "8 µg/mL"}
{"SMILES": "Fc1ccc(OC(CCn2ccnc2)c2ccccc2)c(F)c1", "strain": "20 strains", "value": "64 µg/mL"}
{"SMILES": "O=[N+]([O-])/C(Br)=C\\c1ccc(Br)o1", "strain": "31 strains", "value": "2.9 µg/mL"}
{"SMILES": "Cc1ccc(C2NCCn3c2c(C)c2ccccc23)cc1", "value": "250 µg/mL"}
{"SMILES": "c1ccc(-c2ccc(C(c3ccccc3)n3ccnc3)cc2)cc1", "strain": "16 strains", "value": "16 µg/mL"}
{"SMILES": "Clc1ccc(COC(Cn2ccnc2)c2ccc3c(c2)OCO3)c(Cl)c1", "value": ">100 µg/mL"}
{"SMILES": "C[C@H]1[C@H](O)[C@@H](C)/C=C/C=C/C=C/C=C/C=C/C=C/C=C/[C@H](O[C@@H]2O[C@H](C)[C@@H](O)[C@H](N)[C@@H]2O)C[C@@H]2O[C@](O)(C[C@@H](O)C[C@@H](O)CC[C@H](O)[C@@H](O)C[C@@H](O)CC(=O)O[C@H]1C)C[C@H](O)[C@H]2C(=O)O", "strain": "34 isolates", "value": "0.5 µg/mL"}